The filed quantity is “Percent Effect” (%). How 0% and 100% were set is not recorded. Most values in the screen are low, and negative values occur. The entries come from a sample that favours strong results. A dash means the value is not listed here; it may have been measured.

Mtb glucose medium: 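Whole-cell growth test on Mycobacterium tuberculosis, read after 3 days in glucose-containing 7H9 medium; the read-out is not stated. Compounds at 500 µM. Higher reads as more growth inhibition (inferred: compounds with an IC50 in retests scored well above the rest). Size under these conditions: about 18,000 compounds, about 1,400 of them at 50% or above in at least one test.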
Mtb cholesterol medium: 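Whole-cell growth test on Mycobacterium tuberculosis, read after 4 days in a medium based on cholesterol and the lipid DPPC; the read-out is not stated. Compounds at 500 µM. Higher reads as more growth inhibition (inferred: compounds with an IC50 in retests scored well above the rest). About 18,000 compounds were tested under these conditions; 5% (about 900) showed 50% or more at least once.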

structure,Mtb glucose medium,Mtb cholesterol medium
COCCN1CCCN(c2nccc(C)n2)CC1=O,18.95%,-
COCC(C)NC(=O)CSc1ccc(C(C)=O)cc1F (centres unmarked),6.522%,-
CC(=O)N1N=C(c2ccccn2)CC1c1ccccc1 (centres unmarked),-,-1.725%
Cc1nncc(CN)c1C,-4.973%,-
Cc1cc(N2CC(C)OC(C)(C)C2)n2ncnc2n1 (centres unmarked),-,1.45%
CCN(CC)CCSC1CCCCNC1=O (centres unmarked),-11.56%,-
CNCC(=O)Nc1ccccc1OC,2.816%,-
CCn1cnnc1CNC(=O)c1cc(Cl)c(Cl)n1C,-,-5.018%
CCC(NC(=O)CCn1cccn1)c1ccccc1O (centres unmarked),-,17.26%
O=C(NCCSCc1ccco1)c1cccnc1O,1.933%,-
Cc1noc(C)c1CNC1CCN(C)CC1,-4.08%,-
COC(=O)CN1CCCC(c2ncc[nH]2)C1 (centres unmarked),4.671%,-
CC(c1ccc(F)c(F)c1)N1CCN(CCO)C(=O)C1 (centres unmarked),45.67%,-
CC(Sc1nc2ccccc2n1C)C(N)=O (centres unmarked),3.592%,-
CC(C)n1ccnc1CN1CCOC(CN)C1 (centres unmarked),-1.503%,-
COc1ccccc1OCC(C)NS(C)(=O)=O (centres unmarked),16.67%,8.122%
O=C(CCc1cc(Cl)no1)N1CCOC(C(F)(F)F)C1 (centres unmarked),63.4%,58.95%
Fc1cccnc1NCc1cccc2c1OCCCO2,-,-3.062%
CN1CCC(NC(=O)c2ccc(Br)o2)CC1,11.92%,-
Cc1cc(NC(=O)NCc2cccc(C)n2)ccn1,-,-12.33%
CCN(CC)C(C)CNc1ccc2nnnn2n1 (centres unmarked),-,-24.43%
COc1c(CNCCS(C)(=O)=O)c(C(C)C)nn1C,11.16%,56.89%
O=C(Cc1cccs1)N1CCNCC1,1.401%,-
O=C(Cc1c[nH]c2ncccc12)NCc1cccnc1,28.71%,-
CCCC(=O)Nc1cc(C(=O)OC)cc(C(=O)OC)c1,60.29%,-
CCC(=O)NC(C)(C#N)C(C)C (centres unmarked),5.911%,3.912%
CS(=O)(=O)CC(=O)Nc1cccc(Cl)c1Cl,-,15.19%
O=C(Nc1cccs1)NC1(CCO)CCC1,-3.304%,-
CN(C)c1cc(CNC(=O)C2CCC(=O)N2)ccn1 (centres unmarked),19.58%,-
CN1CCC(CNC(=O)CNS(=O)(=O)c2cccs2)C1 (centres unmarked),18.44%,-
Cc1cc(C)cc(C(O)Cn2ccnc2S(C)(=O)=O)c1 (centres unmarked),-,9.468%
COc1ccc(NC(=O)NC2CCS(=O)(=O)C2)cn1 (centres unmarked),-44.06%,-
O=C1OCCC12CCNC2 (centres unmarked),-,-4.936%
N#Cc1cc(N2CCC[C@@H]2CO)nc2ccccc12,-8.595%,-
CNC(=O)c1ccc(C#N)cc1,5.431%,-
CSc1ccc(OCCn2cnnc2[S+](C)[O-])cc1 (centres unmarked),26.35%,-
Cc1ccnc(NCCOCCS(C)(=O)=O)c1,-7.594%,-14.19%
CN(C)S(=O)(=O)c1ccc(COC(=O)C2CC2)o1,62.72%,63.04%
COCC(=O)N1CCCN(Cc2cnn(C)c2)CC1,0.9726%,-
CC1COCCN1Cc1cc(=O)n(C)c(=O)n1C (centres unmarked),-7.066%,-
CSc1ccc(NC(=O)NCC2(O)CCNC2)cc1 (centres unmarked),41.72%,-
CC(C(N)=O)N1CCNCC1 (centres unmarked),-6.649%,-
NC(=O)CC1COCCN1 (centres unmarked),-5.035%,-
COCC(=O)N1CCN(C)Cc2ccccc21,-,-6.164%
CCc1ncc(C2NCCc3[nH]cnc32)cn1 (centres unmarked),9.033%,-
Cc1cc(C)c(C#N)c(N2C[C@H](C3CC3)[C@@H](N)C2)n1,79.47%,60.85%
CN(C)C(=O)c1c[nH]nc1C1CCCNC1 (centres unmarked),-,-5.219%
Cc1ccc(C2CCCCN2)o1 (centres unmarked),-,-0.9154%
c1cc2c(cc1CNC1CC1)OCO2,-,12.62%

For reference, 5 entries once more:

{"structure": "COCCN1CCCN(c2nccc(C)n2)CC1=O", "Mtb glucose medium": 18.95}
{"structure": "O=C(NCCSCc1ccco1)c1cccnc1O", "Mtb glucose medium": 1.933}
{"structure": "Cc1cc(N2CC(C)OC(C)(C)C2)n2ncnc2n1", "stereo": "centres unmarked", "Mtb cholesterol medium": 1.45}
{"structure": "CS(=O)(=O)CC(=O)Nc1cccc(Cl)c1Cl", "Mtb cholesterol medium": 15.19}
{"structure": "CCC(=O)NC(C)(C#N)C(C)C", "stereo": "centres unmarked", "Mtb glucose medium": 5.911, "Mtb cholesterol medium": 3.912}

Data taken from ChEMBL document CHEMBL3988442, “University of Dundee, Small-Polar-MMV Screening Library” (2021).